The exact form of at least one protein or probe is not confirmed. For some of these results: No signal at the amounts used counts as a negative. For some of these results: At least one verdict rests on a figure or table, not on a statement of the authors. For some of these results: A weaker result is weaker than the reference pair of the same experiment.
Tests used:
[1] = test system: Cdc13 (CST subunit) + Stn1 + Ten1; assay: smFRET; conditions: 16 nM CST, about half dissociated 30 min after wash; 3' biotin on strand 2; smFRET: 20 mM Tris-HCl pH 7.5, 3 mM MgCl2, 100 mM NaCl, 1 mM DTT, 0.1 mg/ml BSA, 22 C; recombinant protein; protein details: SUMO (N-term), FLAG (C-term),HIS6-SUMO,GST; label: Cy3 near G-tail end, Cy5 5' of strand 2
[2] = test system: Stn1 + Ten1; assay: EMSA; conditions: various buffers; EMSA: 10 mM Tris-HCl pH 8.0, 2 mM MgCl2, 1 mM spermidine, 1 mM DTT, 10% glycerol, 22 C; recombinant protein; protein details: HIS6-SUMO,GST; label: 32P; single-stranded DNA
[3] = test system: Cdc13 (Candida glabrata); assay: EMSA; conditions: EMSA: 10 mM Tris-HCl pH 8.0, 2 mM MgCl2, 1 mM spermidine, 1 mM DTT, 10% glycerol, 22 C, recombinant protein, protein details: HIS6-SUMO (N-term), FLAG (C-term), single-stranded DNA
[4] = test system: Cdc13 (CST subunit) + Stn1 + Ten1; assay: EMSA; conditions: EMSA: 10 mM Tris-HCl pH 8.0, 2 mM MgCl2, 1 mM spermidine, 1 mM DTT, 10% glycerol, 22 C, recombinant protein, protein details: SUMO (N-term), FLAG (C-term),HIS6-SUMO,GST, single-stranded DNA
[5] = test system: Ten1 (Candida glabrata); assay: EMSA; conditions: various buffers; EMSA: 10 mM Tris-HCl pH 8.0, 2 mM MgCl2, 1 mM spermidine, 1 mM DTT, 10% glycerol, 22 C; recombinant protein; protein details: GST; label: 32P; single-stranded DNA
[6] = 40 nM, smear, unstable, label: unlabeled competitor or labeled probe

## TGGCGACGGCAGCGAGGCTGTGGGGTCTGGGTGC / GCCTCGCTGCCGTCGCCA [16-nt G-tail FRET construct]
[1]
  binding result: binds

## TGTGGGGTCTGGGTGC [CgTELX1]
[2]
  binding result: no binding
[3]; label: 32P
  binding result: binds
[4]; t1/2 about 10 min (5-13), label: 32P
  binding result: binds
[5]
  binding result: no binding

## TGTGGGGTCTGGGTGCTGTGGGGTCTGGGTGCTGTGGGGTCTGGGTGC [CgTELX3]
[3]; three complexes, 15-60 nM, label: 32P
  binding result: binds
[4]; two complexes, 15-60 nM, label: 32P
  binding result: binds

## TTAGGATCCATGAAAACTGAAGAAGGTAAACTGGTA [R1]
[3]; [6]
  binding result: binds more weakly
[4]; [6]
  binding result: binds more weakly

## TTTTTTTTTTTTTTTTTTTTTTTTTTTTTTTTTTTTTTTTTTTTTTTTTTTTTTTTTT [(dT)58]
[3]; 40-80 nM, smear, unstable
  binding result: binds more weakly
